Test results published in paper PMC8640510 (Cell Death and Differentiation, 2021).

Biological target: SARS-CoV NSP14/10 complex (ExoN activity) (Severe acute respiratory syndrome coronavirus, UniProt P0C6X7)
Assay: biochemical

CC(C)=CCc1c(O)ccc(C(=O)/C=C/c2ccc(O)cc2)c1O [#96, Isobavachalcone]
IC50: 15 µM
